Source: patent publication US20230001027A1, “METAL CHELATING AGENTS AND METHODS OF USING THE SAME” (priority 2019, published 2023)

Conditions: PET, t=0 hr, 3 month old and 26 month old rats

^89Zr-DOTA-alendronate
uptake in the heart, associated venous flow (jugular veins and vena cava) and kidneys: high initial uptake
